Data from patent publication US9382245B2, “Compounds and methods for treating HIV infections” (priority 2013, dated 2016).

System: human MT-2 T-cells
Conditions: Table 4; 50% inhibition of MT-2 cell growth

Compound: Cc1cc(C#N)cc(C)c1Oc1nc(Nc2ccc(C#N)cc2)nc(N)c1Br [etravirine, reference compound]
- CC50: 11 µM
